Measurements from “University of Dundee, Small-Polar-MMV Screening Library” (2021), ChEMBL document CHEMBL3988442.

A: 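Whole-cell growth test on Mycobacterium tuberculosis, read after 3 days in glucose-containing 7H9 medium; the read-out is not stated. Concentration: 50 µM. Higher reads as more growth inhibition (inferred: compounds with an IC50 in retests scored well above the rest). About 69,000 compounds were tested under these conditions; 1.1% (about 760) showed 50% or more at least once.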
B: 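Phenotypic screen: M. tuberculosis growth, cholesterol and DPPC medium, 4 days; the read-out is not stated. Concentration: 50 µM. Higher reads as more growth inhibition (inferred: compounds with an IC50 in retests scored well above the rest). Of about 69,000 compounds tested this way, about 370 (0.54%) reached 50% or more in at least one test.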

The filed quantity is “Percent Effect” (%).
The record does not define 0% and 100%; most values in the screen are far below 50% and negative numbers occur (in some assays of this library far below -100).
The entries come from a sample that favours strong results.
Two or more numbers in one place are separate tests of the same structure; such repeats can differ widely.
A dash means the value is not listed here; it may have been measured.

compound: CC(C)Oc1ccc(CN2CCCC(N3CCOCC3)C2)cc1CO (centres undefined)
A: -5.498 & 1.078

compound: CC1CCN(C(CNC(=O)Cn2cccn2)c2cccs2)CC1 (centres undefined)
B: 3.867

compound: Cc1ccsc1-c1cc(C(=O)O)cc(S(=O)(=O)NCc2ccccn2)c1
A: -15.05

compound: CC(C)c1nnc2n1CCN(C(=O)c1ccc(S(C)(=O)=O)cc1)C2
B: 6.637

compound: Cc1cc(CN2CCc3nc(C(C)C)nc(O)c3CC2)c(C)s1
B: 54.36

compound: CN(Cc1nnc2n1CCC2)C(=O)c1ccc2c(c1)OCCO2
A: -42.91

compound: OC(CN1CCN(c2ncccn2)CC1)c1cccc(F)c1 (centres undefined)
A: 24.27

compound: Cc1cc(=O)[nH]c(SC(C)C(=O)N2CCC(NS(C)(=O)=O)CC2)n1 (centres undefined)
A: 70.28

compound: CCn1cnnc1Cc1nc2c([nH]1)CC(c1ccc(Cl)cc1)CNC2=O (centres undefined)
B: -25.4

compound: Fc1ccc(F)c(CN2CCC(c3cnccn3)CC2)c1
A: 26.95
B: 17.51

compound: [H][C@@]12CCCCN(C)[C@]1([H])[C@@H](c1ccccc1)CCN2C(=O)c1ccncc1
A: 14.66

compound: CC(C)(Oc1ccc(F)cc1)C(=O)NCc1ccco1
A: 42.12

compound: COc1ccc(C[C@H]2CN(c3nnc(C)s3)CC[C@H]2OC)cc1.O=C(O)C(F)(F)F
A: 49.83 & 51.45
B: 46.78

compound: Cc1nc(CNCc2cccc(OC34CCCN(CC3)C4)c2)n[nH]1 (centres undefined)
A: 9.222
B: 14.54

compound: CNc1cc(C)nc(NCc2cc(C)cc3c(C)c(C)[nH]c23)n1
A: 60.92 & 65.02
B: 72.99

compound: CS(=O)(=O)NC1CCN(Cc2coc(-c3ccccc3)n2)CC1
A: -18.69 & 0.6123

compound: COc1cc(NC(=O)NCCO)ccc1N1CCOC1=O
A: 16.41

compound: CN(C)c1cc(C(=O)N2CCCC2c2cnn(C)c2)ccn1 (centres undefined)
A: -26.06

compound: O=C(c1ccnn1COc1ccc(Cl)cc1)N1CCOCC1
A: 2.363 & -4.88

compound: O=C(c1cnn2c(-c3ccco3)ccnc12)N1CCCCCC1
A: 33.38

compound: O=C(Nc1ccnc(OC2CCOC2)c1)c1ccc(F)cc1Cl (centres undefined)
A: 7.331 & 6.791
B: 7.74

compound: COc1c(F)cc(CN2CCC3(CC2)C(C(=O)O)CC(=O)N3C)cc1Cl (centres undefined)
A: -0.1314 & 3.006

compound: O=C(O)C(F)(F)F.c1csc(CNCC2COCc3c(-c4ccoc4)nnn3C2)n1 (centres undefined)
A: -11.91

compound: Cc1nn(-c2ccccc2)nc1C(=O)NCC(c1ccsc1)N(C)C (centres undefined)
A: -5.448
B: 18.12

compound: CC(=O)N[C@@H]1C[C@H](Cc2ccccc2)O[C@H](c2ccc(C(=O)O)cc2)C1
B: 0.9148 & -6.625

compound: CCN1CCOC(CNCc2ccccc2OCc2ccncc2)C1 (centres undefined)
A: -16.19

compound: [H][C@@]12CCN(Cc3ccco3)CC[C@]1([H])[C@H](COC)CN(C)C2=O
A: 6.779 & 76.39

compound: COCCN(Cc1ccc(OC)nc1)Cc1cccs1
A: -7.713 & -1.307
B: -1.578

compound: O=C(NC1CC1)N1CCN(c2cnccn2)CC1
A: -77.58 & -2.009

compound: CN(C(=O)Cc1coc(-c2ccccc2)n1)C1(C#N)CCC1
A: -1.799

compound: O=C(NCCn1cccn1)c1nnc2ccccc2n1
A: 29.11

compound: N#CC1CCCN(S(=O)(=O)c2ccc(C(=O)NCC(F)F)cc2)C1 (centres undefined)
B: -3.88

compound: [H][C@@]12CCN(C(=O)Cc3cccc(F)c3)C[C@]1(COC)CCO2
A: -26.58

compound: Cc1ccc(-c2nc(CN3CCOC(Cn4cccn4)C3)cs2)o1 (centres undefined)
A: -1.922

compound: O=C1CCc2cc(-c3csc(CCN4CCCC4=O)n3)ccc2N1
A: -15.05
B: -26.1

compound: CCNc1nc(C)c(C(=O)N(C)Cc2noc(C)n2)s1
B: -17.19

compound: COc1cc(-c2cccc3c2OC(CN)C3)ccc1O (centres undefined)
A: 17.29 & 18.1

compound: Cc1cccc(NC(C)C(=O)Nc2nccs2)c1 (centres undefined)
A: 33.96 & 16.51
B: -14.2

compound: CC[C@H](C)[C@H](NC(=O)c1cccc(-n2cnnn2)c1)C(=O)OC
A: -0.3732
B: -9.001

compound: CC(C)COc1cncc(N2CCCN(c3ncccn3)CC2)n1
A: 8.088
B: -4.793

compound: O=C(NCc1nnc2n1CCCCC2)N(Cc1ccncc1)C1CC1
B: 65.4

compound: O=C(NCC1(CO)CC1)c1ccccc1Cl
A: -0.0591
B: -3.802

compound: Cc1ccc2nc(-c3cnc(N)nc3)cc(C(=O)N(C)C)c2c1
B: -10.63

Repeated from the top, 3 entries:

compound	A	B
CC(C)Oc1ccc(CN2CCCC(N3CCOCC3)C2)cc1CO (centres undefined)	-5.498 & 1.078	-
CC1CCN(C(CNC(=O)Cn2cccn2)c2cccs2)CC1 (centres undefined)	-	3.867
Cc1ccsc1-c1cc(C(=O)O)cc(S(=O)(=O)NCc2ccccn2)c1	-15.05	-